Experiment [1] has as its target RBD (residues 315-537) of Guangdong pangolin CoV (Guangdong pangolin CoV). As to the kind of experiment: BLI.
Experiment [2] concerns the target RBD (residues 319-541) of Bat-CoV RaTG13 (Bat CoV RaTG13). As to the kind of experiment: BLI.

pKd: −log10 of the molar value.

“COVA1-16 IgG1 antibody (from UniProt P01857)”: the negative-log Kd (pKd) in experiment [1] is 7.96; in experiment [2] it was 7.85.

The values above are taken from article PMC7687367.
